Measured values: ChEMBL document CHEMBL1151538, “Rearrangement of unsymmetrical azetidinone disulfides to 2-(heterocyclylthiomethyl)penams, a synthetic approach to new -lactamase inhibitors” (Bioorg Med Chem Lett, 1993)

The chains behind the UniProt entries cited, without tags or fusion partners. Residues count along the entry.
UniProt Q59514, 26-313 limits assumed: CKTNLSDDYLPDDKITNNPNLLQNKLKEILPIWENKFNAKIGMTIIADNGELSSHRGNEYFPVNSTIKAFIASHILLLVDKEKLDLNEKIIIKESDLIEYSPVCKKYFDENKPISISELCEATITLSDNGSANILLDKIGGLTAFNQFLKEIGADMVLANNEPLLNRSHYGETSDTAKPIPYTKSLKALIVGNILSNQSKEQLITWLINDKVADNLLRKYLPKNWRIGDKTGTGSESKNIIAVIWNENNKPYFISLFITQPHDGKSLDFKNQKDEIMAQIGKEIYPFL
UniProt P05193, 21-381 limits assumed: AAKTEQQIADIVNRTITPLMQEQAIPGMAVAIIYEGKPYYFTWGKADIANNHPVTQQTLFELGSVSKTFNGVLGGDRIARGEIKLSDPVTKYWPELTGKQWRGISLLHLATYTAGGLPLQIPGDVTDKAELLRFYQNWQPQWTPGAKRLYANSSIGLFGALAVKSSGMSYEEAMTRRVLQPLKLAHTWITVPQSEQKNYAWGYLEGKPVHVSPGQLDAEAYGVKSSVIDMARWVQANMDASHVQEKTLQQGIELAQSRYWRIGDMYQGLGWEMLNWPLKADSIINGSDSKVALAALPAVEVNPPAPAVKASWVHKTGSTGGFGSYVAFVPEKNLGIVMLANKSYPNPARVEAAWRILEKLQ
UniProt P05364, 21-381 limits assumed: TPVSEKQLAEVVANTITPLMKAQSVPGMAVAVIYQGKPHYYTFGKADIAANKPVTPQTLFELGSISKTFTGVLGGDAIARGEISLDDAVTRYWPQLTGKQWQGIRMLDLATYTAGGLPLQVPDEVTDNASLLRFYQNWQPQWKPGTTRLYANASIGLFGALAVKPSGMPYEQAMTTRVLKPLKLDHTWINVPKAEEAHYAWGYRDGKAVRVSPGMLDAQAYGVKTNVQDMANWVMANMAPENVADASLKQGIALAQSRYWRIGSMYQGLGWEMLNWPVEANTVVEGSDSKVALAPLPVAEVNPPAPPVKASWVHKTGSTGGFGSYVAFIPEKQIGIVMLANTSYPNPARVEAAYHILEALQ
UniProt P62593, 24-286 limits assumed: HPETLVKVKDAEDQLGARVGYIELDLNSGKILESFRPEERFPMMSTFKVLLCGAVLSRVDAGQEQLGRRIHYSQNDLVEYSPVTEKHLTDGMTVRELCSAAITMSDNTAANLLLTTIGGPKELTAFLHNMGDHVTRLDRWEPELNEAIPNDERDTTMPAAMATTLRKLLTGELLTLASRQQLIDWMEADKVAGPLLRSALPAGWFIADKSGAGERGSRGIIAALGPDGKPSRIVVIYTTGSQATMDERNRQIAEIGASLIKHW
UniProt P00807, 25-281 limits assumed: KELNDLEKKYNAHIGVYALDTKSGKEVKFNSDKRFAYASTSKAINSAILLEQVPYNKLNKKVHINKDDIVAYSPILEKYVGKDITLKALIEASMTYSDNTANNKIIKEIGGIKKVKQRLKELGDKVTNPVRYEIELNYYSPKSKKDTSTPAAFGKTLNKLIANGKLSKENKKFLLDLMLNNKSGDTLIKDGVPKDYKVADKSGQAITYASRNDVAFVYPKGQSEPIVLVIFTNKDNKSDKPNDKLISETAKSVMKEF
UniProt P0AD63, 22-286 limits assumed: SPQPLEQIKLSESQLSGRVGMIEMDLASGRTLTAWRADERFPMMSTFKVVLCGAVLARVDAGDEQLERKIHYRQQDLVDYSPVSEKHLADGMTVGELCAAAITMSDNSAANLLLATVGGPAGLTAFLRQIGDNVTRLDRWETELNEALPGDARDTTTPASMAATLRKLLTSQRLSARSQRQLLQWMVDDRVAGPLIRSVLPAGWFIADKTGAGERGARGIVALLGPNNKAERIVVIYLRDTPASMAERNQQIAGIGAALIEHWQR
UniProt P13661, 26-276 limits assumed: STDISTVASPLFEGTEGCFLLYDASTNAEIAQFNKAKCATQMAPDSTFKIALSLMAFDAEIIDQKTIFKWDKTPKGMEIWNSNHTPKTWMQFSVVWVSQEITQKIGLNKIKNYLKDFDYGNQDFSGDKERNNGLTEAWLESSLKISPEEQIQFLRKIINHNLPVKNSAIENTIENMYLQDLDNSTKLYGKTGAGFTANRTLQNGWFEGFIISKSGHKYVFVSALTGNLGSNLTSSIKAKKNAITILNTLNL

What was measured:
Beta-lactamase BRO-1 = Beta-lactamase BRO-1 (Moraxella catarrhalis, UniProt Q59514); assay: Inhibitory activity against Branhamella catarrhalis 89001 Class-III BRO-1 type beta-lactamase enzyme
Beta-lactamase [1] = molecular target: Beta-lactamase (Citrobacter freundii, UniProt P05193); assay: Inhibitory activity against Citrobacter freundii 87470 Class-I beta-lactamase enzyme
Beta-lactamase [2] = molecular target: Beta-lactamase (Enterobacter cloacae, UniProt P05364); assay: Inhibitory activity against Enterobacter cloacae HC8 Class-I beta-lactamase enzyme type P99
Beta-lactamase TEM = Beta-lactamase TEM (Escherichia coli, UniProt P62593); assay: Inhibitory activity against Escherichia coli HA58R Class-III TEM-1 type beta-lactamase enzyme
Beta-lactamase [3] = molecular target: Beta-lactamase (Staphylococcus aureus, UniProt P00807); assay: Inhibitory activity against Staphylococcus aureus CJ8 beta-lactamase enzyme
Beta-lactamase [4] = molecular target: Beta-lactamase (Klebsiella oxytoca, UniProt Q8RT60); assay: Inhibitory activity against Klebsiella oxytoca HC7 Class-IV K1 type beta-lactamase enzyme
Beta-lactamase SHV-1 = Beta-lactamase SHV-1 (Escherichia coli, UniProt P0AD63); assay: Inhibitory activity against Escherichia coli HA208 Class-III SHV-1 type beta-lactamase enzyme
Beta-lactamase OXA-1 = Beta-lactamase OXA-1 (Escherichia coli, UniProt P13661); assay: Inhibitory activity against Escherichia coli HA209 Class-V OXA-1 type beta-lactamase enzyme

`C[C@@]1(CSC2=NCCS2)S[C@@H]2[C@H](Br)C(=O)N2[C@H]1C(=O)O` gave an IC50 (Beta-lactamase BRO-1) of 80.5 nM, an IC50 (Beta-lactamase [1]) of 50300 nM and an IC50 (Beta-lactamase [2]) of 32700 nM. It also gave an IC50 (Beta-lactamase TEM) of 40.3 nM, an IC50 (Beta-lactamase [3]) of 126 nM and an IC50 (Beta-lactamase [4]) of 2520 nM. For the same compound, the IC50 (Beta-lactamase SHV-1) was 503 nM and the IC50 (Beta-lactamase OXA-1) was 1590 nM.

For `CC1(C)S[C@@H]2[C@H](Br)C(=O)N2[C@H]1C(=O)O`, the IC50 (Beta-lactamase BRO-1) was 10.7 nM, the IC50 (Beta-lactamase [1]) was 1780 nM and the IC50 (Beta-lactamase [2]) was 1780 nM. The IC50 (Beta-lactamase TEM) was 14.3 nM, the IC50 (Beta-lactamase [3]) was 46.4 nM and the IC50 (Beta-lactamase [4]) was 286 nM. It also gave an IC50 (Beta-lactamase SHV-1) of 17.8 nM and an IC50 (Beta-lactamase OXA-1) of 714 nM.

With `C[C@@]1(CSc2nc[nH]n2)S[C@@H]2[C@H](Br)C(=O)N2[C@H]1C(=O)O` the IC50 (Beta-lactamase BRO-1) was 65.9 nM, the IC50 (Beta-lactamase [1]) was 10500 nM and the IC50 (Beta-lactamase [2]) was 42200 nM. The IC50 (Beta-lactamase TEM) was 21.1 nM, the IC50 (Beta-lactamase [4]) was 1320 nM and the IC50 (Beta-lactamase SHV-1) was 26.4 nM. For the same compound, the IC50 (Beta-lactamase OXA-1) was 5270 nM.
